Screening data, single-dose tests

Data taken from ChEMBL document CHEMBL3988442, “University of Dundee, Small-Polar-MMV Screening Library” (2021).

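Phenotypic screen: M. tuberculosis growth, glucose 7H9 medium, 3 days; the read-out is not stated. Tested at 50 µM. Direction is inferred from retests: higher values go with more growth inhibition. Size under these conditions: about 69,000 compounds, about 760 of them at 50% or above in at least one test.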

Each number is a percent effect as filed. How 0% and 100% were set is not recorded. Most values in the screen are low, and negative values occur. The entries come from a sample that favours strong results. Two or more numbers in one place are separate tests of the same structure; such repeats can differ widely.

SMILES,Percent Effect
O=C(NCCNc1ncccn1)c1ccc(Br)cc1,32.21
CCc1nnc2n1CCN(C(=O)CN(C)C1CC1)C2,-29.05
CCc1onc(C)c1C(=O)N1CCC(c2cc3ncccc3cn2)CC1,14.39
Fc1ccccc1CN1CCCC2(CCN(c3ncccn3)C2)C1 (centres undefined),38.41 and 40.6
CCOCCCNC(=O)c1cn(CC)nc1C,8.262
CSCc1cc(F)ccc1CNC(=O)N1CCCC1,23.44
O=C(c1ccncc1)N(CCO)Cc1cc(Br)ccc1F,9.157 and 1.081
Fc1cccnc1N1CCCC(c2nccs2)C1 (centres undefined),21.3
Cc1cc(F)cc(NC(=O)N(C)CC(C)(CO)CO)c1,29.33 and 1.746
CC(CNC(=O)N1CCSCC1)Cc1cccs1 (centres undefined),20.57
NC1(c2nc(-c3ccccc3)cc(=O)[nH]2)CCCC1,-31.47 and 0.8318
O=C(CN(Cc1ccccc1)CC1CCOCC1)NC(=O)NC1CC1,-42.93
CN(Cc1cccc(Cl)c1)S(=O)(=O)N1CCOCC1,5.727 and 12.42
COC(=O)CSCc1noc(-c2ccc(C)cc2)n1,53.81 and 67.49
COCc1nc(N(C)C)ncc1C(=O)NC(C)C,7.835
c1ccc(-c2nc3c(c(NCCn4cccc4)n2)CCNCC3)nc1,50.09
Cn1ccnc1-c1ccc(NCc2cn3c(n2)SCC3)nn1,18.61 and -0.5138
Fc1ccccc1CN1CCC[C@H](Cn2nnc(-c3cccs3)n2)C1,2.878
O=C(NCCCn1cccn1)c1nnc2ccccc2n1,37.54
CCc1[nH]c2c(CNc3cnccn3)cc(F)cc2c1C,42.46
Cc1ncsc1C(=O)NCCSCc1cccs1,28.92
O=S(=O)(NCCNc1ccc(-n2cccc2)nn1)c1ccccc1,95.63 and 70.35
CS(=O)(=O)Nc1cccc(C(=O)Nc2ccc3c(c2)C(=O)NC3)c1,-9.848
CCn1nnc(NCc2ccccc2OCc2ccc(Cl)cc2)n1,50.8
O=C(NC1CCCN(CCCc2ccccc2)C1)c1ccc(Cl)s1 (centres undefined),61.81
CN(Cc1cccs1)S(=O)(=O)c1ccc(C(F)(F)F)nc1,52.46
Clc1cccc(-c2cccc(N3CCC(NC4CCOCC4)CC3)c2)c1,89.02
COc1ccsc1C(=O)NCCNc1ccccc1,4.748 and 29.02
Cc1ccc(CN2CCOC3(CCN(C(=O)C4CC=CC4)CC3)C2)cc1.O=C(O)C(F)(F)F,37.78 and 31.13
Cc1nn(-c2ccccc2)c2nc(C(C)(C)CN3CCN(C)CC3)[nH]c12,20.3
CCc1noc(CN(C)C(=O)C(C)(C)Oc2cccc(Cl)c2)n1,-30.19
O=C(CCC1CCCN(C(=O)CCc2ccc(F)c(F)c2)C1)NC1CC1 (centres undefined),-16.33
Cc1cc(C)n(-c2cncc(NCCNC(=O)C3CCCC3)n2)n1,-17.15
O=C1CCNc2ncc(-c3ccccc3Cl)cc2CN1C1CC1,35.5
Cc1nsc(NCCNS(=O)(=O)c2ccccc2)n1,0.8589 and 14.24
CCSCc1ccc(C(=O)N2CCCN(CC(N)=O)CC2)cc1,-13.32
COc1ccc(OC)c(CN2CCc3nc4ccsc4c(=O)n3CC2)c1.Cl,28.43
CCCN1CCC(NC(=O)c2csc(C)c2-c2ccccc2)CC1,6.253 and -0.6244
COCCC(=O)NCC1COc2cc(OC)ccc2C1 (centres undefined),29.24
O=C(Nc1nccs1)c1csc(NC2CCCC2)n1,71.6 and 67.57
Cc1ccc2oc(N3CCN(CC(=O)NC(C)C)CC3)nc2c1,6.792
Cc1cccc(OCCN2CCC(c3ccnn3CCO)CC2)c1,52.72
Cc1cnn(CC2CCCN2Cc2nccn2C)c1 (centres undefined),25.28
c1ccc(OCCCN2CCN(c3ccc4nncn4n3)CC2)cc1,51.24
CC(C)Nc1nc(N2CCCC2)nc2c1CN(C(C)C)CC2,65.99
CCOc1cccc2c1OCC(C(=O)NS(=O)(=O)c1c(C)noc1C)=C2,58.03
Cc1n[nH]c(C)c1NC(=O)c1cccc(OCC(F)(F)F)n1,15.47
Cc1cccc2c1OCCCC2NCc1nccn1Cc1ccccc1 (centres undefined),51.91
NC(=O)Cn1ccnc1C1CCCN(Cc2ccccc2OC(F)F)C1 (centres undefined),-4.745 and 2.372
Cc1cc(C(=O)NCC2COCc3c(C)nnn3C2)no1 (centres undefined),-3.622
Cc1noc(NC(=O)c2ccc(Br)cc2)n1,8.635
Cc1oc(C)c(C(=O)NCc2ccccn2)c1C,-2.431
Clc1ccc(-c2c[nH]c([C@@H]3COCCN3)n2)cc1,0.3468 and 7.894
CC(NC(=O)NCCCO)c1ccc2c(c1)OCCO2 (centres undefined),4.556
CN1CCN(C(=O)Cc2ccc(S(=O)(=O)C(F)F)cc2)CC1,18.62
[H][C@]12CCN(C(=O)C3CCCO3)CC[C@@]1([H])S(=O)(=O)N(CC(C)C)C2 (some centres undefined),-10.39 and 82.22

The first 3 entries again:

{"smiles": "O=C(NCCNc1ncccn1)c1ccc(Br)cc1", "Percent Effect": 32.21}
{"smiles": "CCc1nnc2n1CCN(C(=O)CN(C)C1CC1)C2", "Percent Effect": -29.05}
{"smiles": "CCc1onc(C)c1C(=O)N1CCC(c2cc3ncccc3cn2)CC1", "Percent Effect": 14.39}